Pooled drug test results. Numbers come from NIAID ChemDB, via PubChem.

Shared fields: growth or infection tests; agent: Human cytomegalovirus; measure: EC50

ECn is the concentration giving n% inhibition of infection, replication or growth. Two numbers with a dash give a range or band. Conditions beyond the fields shown may differ between rows. An empty or dashed field is not shown.

SMILES	cell line	read by	strain or isolate	value
CCCCCCCCCCCCSC[C@H](O)COP(=O)(O)C(=O)O	MRC-5			6.5 µM
O=C(O)c1cc(O)ccc1O	HEL	cytopathic effect	DAVIS	4.5 µg/mL
OC[C@H]1O[C@@H](n2c(Cl)nc3cc(Cl)c(Cl)cc32)[C@H](O)[C@@H]1O				2.9 µM
OC[C@H]1O[C@@H](n2c(Cl)nc3cc(Cl)c(Cl)cc32)[C@H](O)[C@@H]1O	HFF	plaque count	TOWNE	2.9 µM
N#Cc1cn([C@@H]2O[C@H](CO)[C@@H](O)[C@@H]2O)c2ncnc(N)c12	HFF	plaque count	TOWNE	1.7 µM
Nc1ncnc2c1ncn2[C@H]1C[C@]12C[C@H]2CO	HFF	plaque count	TOWNE	20 µM
Cc1cccc2c1OP(=O)(OC[C@H]1O[C@@H](n3cc(/C=C/Br)c(=O)[nH]c3=O)C[C@@H]1OC(=O)[C@H]1CCCN1)OC2	HELF	plaque count	AD169	>128 µg/mL
Nc1ncnc2c1ncn2C[C@@H](CO)OCP(=O)(O)O				1.4 µM
COC(=O)[C@]1(O)C[C@@H]2O[C@@]1(C)n1c3ccccc3c3c4c(c5c6ccccc6n2c5c31)C(=O)NC4	HEF	plaque count	Isolate 6	0.02 µM
Nc1nccc2c1ncn2[C@H]1C[C@H](O)[C@@H](CO)O1	HEL		AD169	>100 µM
COc1ccc2c(c1)[nH]c1c3[nH]c4cc(OC)ccc4c3c3c(c21)C(=O)NC3=O	VERO	plaque count		0.5 µM
Nc1nc2c(ncn2[C@H]2C=C[C@@H](CO)CC2)c(=O)[nH]1	HEL	plaque count	AD169	1.05 µg/mL
O=c1cc(-c2ccc(O)c(O)c2)oc2cc(O)cc(O)c12	HEF	plaque count	A6245	12.5 µM
NC(=O)c1cn([C@H]2C[C@H](O)[C@@H](CO)O2)c2ncnc(N)c12	HFF		TOWNE	0.9 µM
COc1cc(-c2cc(=O)c3c(O)cc(O)cc3o2)cc(OC)c1O		plaque count		0.05–1.2 µM
NCC(O)c1ccc(O)c(O)c1	HEL	plaque count	DAVIS	88 µg/mL
Nc1ncnc2c1ncn2[C@H]1C[C@H](O)[C@@H](COP([O-])(=S)O[C@H]2C[C@H](n3ccc(=O)[nH]c3=O)O[C@@H]2CO)O1			AD169	>20 µM
Nc1nccc2c1ncn2C(C=O)OC(C=O)CO	HEL	cytopathic effect	AD-169 (100 PFU)	6.25 µg/mL
Nc1nccc2c1ncn2[C@H]1C[C@H](O)[C@@H](COP(=O)(O)COC(=O)[C@@H](N)CC(=O)O)O1	HEL		DAVIS	>100 µM
Nc1nccc2c1ncn2[C@@H]1C[C@H](CO)[C@@H](O)[C@H]1O	HEL	plaque count	AD-169 (20 PFU)	1.63 µg/mL
CC(C)NCC(O)c1ccc(O)c(O)c1	HEL	plaque count	DAVIS	70 µg/mL
O=C(O)c1cc(O)c(O)c(O)c1	HEL	cytopathic effect	AD169	3 µg/mL
COC(=O)C(C)NP(=O)(OC[C@H]1C/C1=C/n1cnc2c(N)nc(N)nc21)Oc1ccccc1	HFF	plaque count	AD169	5.5 µM
Nc1nc(N)c2ncn(CCOCP(=O)(O)O)c2n1				55 µM
CCCOC(=O)c1cc(O)c(O)c(O)c1	HEL	plaque count	DAVIS	16 µg/mL
Nc1nc(F)nc2c1ncn2/C=C1\CC1CO	HFF	cytopathic effect	AD169	>60 µM
C[C@H]1C[C@@H](n2cnc3c(N)ncnc32)[C@H](O)[C@@H]1O	HEL	cytopathic effect	AD-169 (100 PFU)	>100 µg/mL
O=c1[nH]cccc1O	HEL	plaque count	AD169	>200 µg/mL
C[C@H](N)C(=O)OCP(=O)(OC[C@H]1O[C@@H](n2cnc3c(Cl)nccc32)C[C@@H]1O)Oc1ccccc1	HEL		AD169	>100 µM
O=C1NC(=O)[C@@H](c2c[nH]c3ccccc23)[C@H]1c1c[nH]c2ccccc12	VERO	plaque count		>10 µM
Nc1nc2c(ncn2/C=C2/C[C@H]2CO)c(=O)[nH]1	HFF	plaque count	AD169	>429 µM
OC[C@H]1O[C@@H](n2c(Br)nc3cc(Cl)c(Cl)cc32)[C@H](O)[C@@H]1O				0.7 µM
Nc1ncnc2c1ccn2[C@H]1C[C@H](O)[C@@H](COP(=O)(O)COC(=O)[C@@H](N)CC(=O)O)O1	HEL		DAVIS	>100 µM
Nc1nc(Cl)nc2c1ncn2/C=C1/CC1CO	HFF	cytopathic effect	AD169	>0.8 µM
COC(=O)C(C)NP(=O)(OC[C@@H]1C/C1=C/n1cnc2c(N)nc(N)nc21)Oc1ccccc1	HFF	plaque count	TOWNE	23 µM
O=C1c2ccccc2C(=O)c2ccccc21	MRC-5	plaque count	AD169	>15.4 µM
CCCCCCCCCCCCCCCCCCCCCCSC[C@H](O)COP(=O)(O)C(=O)O	MRC-5			2.6 µM
OC[C@H]1O[C@@H](n2cnc3c(Cl)nccc32)C[C@@H]1O	HEL		DAVIS	>100 µM
OCC1OC(n2c(NC3CC3)nc3nc4cc(Cl)c(Cl)cc4nc32)C(O)C1O	HFF	plaque count	TOWNE	32 µM
Cc1cc(O)c2c(c1)/C(=C1\c3cc(C)cc(O)c3C(=O)c3c(O)cc(O)cc31)c1cc(O)cc(O)c1C2=O	MRC-5	plaque count	AD169	1 µM
Cc1cc(=O)oc2cc(O)c(O)cc12	HEL	plaque count	AD169	9.9 µg/mL
OCC1OC(n2c(SCc3ccccc3)nc3nc4cc(Cl)c(Cl)cc4nc32)C(O)C1O	KB	plaque count	TOWNE	4.2 µM
O=c1[nH]c(=O)n([C@H]2C[C@H](O)[C@@H](CO)O2)cc1/C=C/Br				>100 µM
CCOC(=O)c1cc(O)c(O)c(O)c1	HEL	plaque count	AD169	4.5 µg/mL
COc1nc(N)nc2c1ncn2/C=C1/C[C@@H]1CO	HFF	plaque count	AD169	2 µM
Cc1nc2[nH]cc(C(=O)NCc3ccc(Cl)cc3)c(=O)c2cc1C#CCO				2.1 µM
CCCCCCCCSC[C@H](O)COP(=O)(O)C(=O)O	MRC-5			45 µM
C[C@H](N)C(=O)O[C@H]1C[C@H](n2cc(/C=C/Br)c(=O)[nH]c2=O)O[C@@H]1COP1(=O)OCc2ccccc2O1	HELF	plaque count	AD169	>128 µg/mL
O=C(O)Cc1ccc(O)c(O)c1	HEL	cytopathic effect	AD169	6.3 µg/mL
O=C(NCCc1c[nH]c2ccccc12)C1=Cc2ccncc2CC1	HFF	virus yield	TOWNE	8.9 µM
Nc1nc2c(ncn2[C@@H]2C=C[C@H](CO)CC2)c(=O)[nH]1	HEL	plaque count	DAVIS	0.83 µg/mL
Nc1nc(F)nc2c1ncn2/C=C1/CC1CO	HFF	cytopathic effect	AD169	>4 µM
Cc1cccc2c1OP(=O)(OC[C@H]1O[C@@H](n3cc(/C=C/Br)c(=O)[nH]c3=O)C[C@@H]1OC(=O)[C@H](C)N)OC2	HELF	plaque count	AD169	>128 µg/mL
Nc1nc2c(ncn2COC(CO)CO)c(=O)[nH]1	HEF	plaque count	A6245	1.8 µM
Nc1ncc2c(ncn2COC(CO)CO)n1				0.12 µM
O=C(O)c1cc(O)c2c(c1)C(=O)c1cccc(O)c1C2=O	MRC-5	plaque count	Ganciclovir-resistant	2 µM
Cc1cccc2c1OP(=O)(OC[C@H]1O[C@@H](n3cc(/C=C/Br)c(=O)[nH]c3=O)C[C@@H]1OC(=O)[C@@H]1CCCN1)OC2	HELF	plaque count	AD169	>128 µg/mL
CCCCCCCCCc1cc2cn([C@H]3CC[C@@H](CO)O3)c(=O)nc2o1				1.2 µM
O=C1NC(=O)c2c1c1c3ccc(F)cc3[nH]c1c1[nH]c3cc(F)ccc3c21	VERO	plaque count		0.04 µM
CC(=O)Nc1ccc(Nc2cc(S(=O)(=O)O)c(N)c3c2C(=O)c2ccccc2C3=O)cc1	MRC-5	luciferase		205 µM
CCCCCCCCCCCCCCCCOC[C@@H](O)COP(=O)(O)C(=O)O	MRC-5			0.63 µM
O=C1Cn2cc(C(=O)NCc3ccc(Cl)cc3)c(=O)c3cc(CN4CCOCC4)cc(c32)N1				0.14 µM
Nc1ncnc2c1c(Br)cn2[C@@H]1O[C@H](CO)[C@@H](O)[C@H]1O	HFF	virus yield	TOWNE	<3.5 µM
CC(C)C(=O)O[C@H]1C[C@H](n2cc(/C=C/Br)c(=O)[nH]c2=O)O[C@@H]1COP1(=O)OCc2ccccc2O1	HELF	plaque count	AD169	>128 µg/mL
O=C1NC(=O)C(c2c[nH]c3ccccc23)C1c1c[nH]c2ccccc12	VERO	plaque count		>100 µM
COC(=O)c1cc(O)c(O)c(O)c1	HEL	plaque count	AD169	6.7 µg/mL
Cc1c(CC(=O)O)ccc(O)c1O	HEL	cytopathic effect	AD169	>25 µg/mL
Nc1ncnc2c1ccn2[C@@H]1O[C@H](CO)[C@@H](O)[C@@H]1O	HFF	plaque count	TOWNE	160 µM
Cc1cc(O)cc(O)c1CC(=O)O	HEL	cytopathic effect	DAVIS	>25 µg/mL
Nc1ncnc2c1ncn2[C@@H]1C=C(CO)[C@@H](O)[C@H]1O	HEL	plaque count	AD-169 (20 PFU)	0.34 µg/mL
Nc1ncnc2c1ncn2C[C@H]1COP(=O)(O)CO1				0.1 µM
CC(=O)CCC(=O)O[C@H]1C[C@H](n2cc(/C=C/Br)c(=O)[nH]c2=O)O[C@@H]1COP1(=O)OCc2ccccc2O1	HELF	plaque count	AD169	>128 µg/mL
O=C1c2ccc(O)c(O)c2C(=O)c2c(O)ccc(O)c21	MRC-5	plaque count	AD169	3.7 µM
Cc1cccc2c1OP(=O)(OC[C@H]1O[C@@H](n3cc(/C=C/Br)c(=O)[nH]c3=O)C[C@@H]1OC(=O)CN)OC2	HELF	plaque count	AD169	>128 µg/mL
Cc1cccc2c1[nH]c1c3[nH]c4c(C)cccc4c3c3c(c21)C(=O)NC3=O	VERO	plaque count		>10 µM
Cn1ccnc1SCC1Cn2cc(C(=O)NCc3ccc(Cl)cc3)c(=O)c3cc(CN4CCOCC4)cc(c32)O1				0.27 µM
Nc1ncnc2c1ncn2C[C@H](O)CO	HEL	plaque count	AD-169 (20 PFU)	>100 µg/mL

For reference, 9 entries again:

| SMILES | cell line | read by | strain or isolate | value |
|---|---|---|---|---|
| Nc1ncnc2c1ncn2C[C@H]1COP(=O)(O)CO1 |  |  |  | 0.1 µM |
| CCCCCCCCCCCCSC[C@H](O)COP(=O)(O)C(=O)O | MRC-5 |  |  | 6.5 µM |
| Cc1cccc2c1OP(=O)(OC[C@H]1O[C@@H](n3cc(/C=C/Br)c(=O)[nH]c3=O)C[C@@H]1OC(=O)[C@H]1CCCN1)OC2 | HELF | plaque count | AD169 | >128 µg/mL |
| NCC(O)c1ccc(O)c(O)c1 | HEL | plaque count | DAVIS | 88 µg/mL |
| OC[C@H]1O[C@@H](n2c(Br)nc3cc(Cl)c(Cl)cc32)[C@H](O)[C@@H]1O |  |  |  | 0.7 µM |
| Nc1nc(Cl)nc2c1ncn2/C=C1/CC1CO | HFF | cytopathic effect | AD169 | >0.8 µM |
| OCC1OC(n2c(NC3CC3)nc3nc4cc(Cl)c(Cl)cc4nc32)C(O)C1O | HFF | plaque count | TOWNE | 32 µM |
| NC(=O)c1cn([C@H]2C[C@H](O)[C@@H](CO)O2)c2ncnc(N)c12 | HFF |  | TOWNE | 0.9 µM |
| O=C1c2ccc(O)c(O)c2C(=O)c2c(O)ccc(O)c21 | MRC-5 | plaque count | AD169 | 3.7 µM |